# Values from PubChem BioAssay AID504761 (Drosophila RNAi Screening Center, 2011).
# Screen: 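Genome-wide fly cell screen for genes dengue virus requires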 (primary screen)
# Cell system: D.Mel-2 cells from Drosophila
# Knock-down reagent: long dsRNA against Drosophila genes
# Conditions: infection with dengue virus type 2; dose and infection time not stated
# Detection: 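Per well on two replicate plates, imaging gave the percent of cells positive for viral envelope protein, ranked by infection, and a nuclear count of cells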
# Scale: infection score: higher = more virus-infected cells; cell count: higher = more cells in the well
# Active means: 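Very low infection ranking in both replicate wells (chance probability at most 0.065), then a retest showing infection dropped 1.5-fold or more at p below 0.05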
# Calls: active = confirmed: knock-down lowers infection; inactive = not picked or not confirmed
# The screen tested about 22,000 reagents; below is an unselected part of those that have a named target and a result. In the full data, 116 (0.52%) were called active. 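Calls depend on retest data that are not deposited; infection was ranked per plate without normalising between plates; the unit of the infection score is not given.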 The raw values are shown without normalisation. Unmarked entries are inactive. A plus sign joins genes that one reagent is predicted to hit. The record does not give: the amount of reagent, the time to read-out.
"infection score, replicate 1","infection score, replicate 2","cell count, replicate 1","cell count, replicate 2",target,amplicon
0.06,0.21,6821,6528,pigs,DRSC17472
4.61,5.5,6426,6311,pigs,DRSC18334
16.9,13.6,5602,5740,pigs,DRSC18335
24.8,19.1,4228,3252,sgll,DRSC15442
1.94,6.86,824,6750,CG6142,DRSC15976
9.18,4.67,6087,5968,Cyp6g2,DRSC07387
9.71,2.69,3614,558,Cyp6g2,DRSC29325
16,16.2,5211,4837,CG6293,DRSC16011
8.65,2.95,2254,1354,CG6293,DRSC28774
0.88,,793,578,tj,DRSC02011
4.39,8.51,1570,5414,tj,DRSC28417
6.2,7.85,5480,6066,CG18265,DRSC10310
5.95,3.01,6484,6355,Nepl17,DRSC14880
5.28,2.44,6662,6639,Spn85F,DRSC14545
7.99,3.24,5394,6082,Eh,DRSC16660
6.07,13.2,5984,6211,CG31051,DRSC15034
16.3,13.9,5998,6404,Or59c,DRSC04633
3.69,2.05,6620,6544,slam,DRSC03240
25.9,12.2,5471,5283,CG13564,DRSC04201
1.16,3.94,5933,5349,eIF1,DRSC08520
5.03,4.96,6427,5829,eIF1,DRSC30115
4.56,4.7,6080,6361,slmo + CG34179,DRSC03143
3,0.53,6358,6566,CG6765,DRSC10706
1.15,5.01,6183,6125,CG6765,DRSC24612
8.53,10.8,4899,4858,mRpL36,DRSC10337
2.53,2.53,6572,6998,CG10348,DRSC23233
29.5,14.3,3371,6672,CG10348,DRSC30046

Single entries from the entries so far.
Result of Eh [DRSC16660] under “infection score, replicate 1”: 7.99
Result of tj [DRSC28417] in “cell count, replicate 1”: 1570
For “cell count, replicate 1”, Spn85F [DRSC14545] has 6662
Entry of mRpL36 [DRSC10337] in “cell count, replicate 1”: 4899
Result for CG6293 [DRSC28774] under “infection score, replicate 2”: 2.95
Under “cell count, replicate 2”, tj [DRSC02011] has 578

Continued:
"infection score, replicate 1","infection score, replicate 2","cell count, replicate 1","cell count, replicate 2",target,amplicon
2.91,7.06,654,1729,eRF1,DRSC11779
30.9,9.96,4466,5633,eRF1,DRSC27974
0.63,6.17,480,2803,Ns2,DRSC06993
,18,247,4087,Ns2,DRSC29008
17.8,19.1,986,1148,hoip,DRSC03546
0.33,2.41,6089,6311,Fis1,DRSC07772
5.24,4.48,6255,6296,CG33337,DRSC13632
10.3,11,6714,6423,CG33337,DRSC27000
1.86,6.88,6506,5796,COX7B,DRSC10895
5.01,4.61,6644,6978,CG13133,DRSC02230
25.1,18.6,5887,6329,CG8569,DRSC07214
1.28,4.99,6775,6847,Ugt303A1,DRSC15641
15.9,3.59,1880,5936,mei-218 + mei-217,DRSC29292
7.12,0.81,5615,6875,CG17784,DRSC15268
4.78,14.6,5980,5953,CG8319,DRSC16407
1.91,4.23,5749,5538,CG8319,DRSC24607
2.47,2.14,6353,5945,FucTD,DRSC08634
3.48,1.11,6233,6152,CG3862,DRSC00631
14.6,11.3,3733,4225,CG3862,DRSC28505
2.23,0.91,6322,6387,CG11251,DRSC09825
12.4,9.21,5996,6113,ND-75,DRSC18686
2.71,4.36,6345,6586,CG42262 (retired record),DRSC17628
9.52,9.02,6409,6521,CG42262 (retired record),DRSC17974
2.33,0.81,6001,6078,CG31782 (retired record),DRSC01554
4.76,3.23,5922,6102,CG31782 (retired record),DRSC01556
0.89,0.87,6281,5858,CG31007,DRSC14029
10.1,10.9,2578,4965,CG31007,DRSC28221
1.59,2.07,6270,6237,CG15332,DRSC18015
7.17,5.65,6210,6677,CG15332,DRSC25660
11.6,8.89,5941,5896,CG8483,DRSC16430
7.94,4.47,6398,6667,CG9663,DRSC00724
4.52,1.21,6149,6591,CG8814,DRSC00707
6.17,25,6791,6200,CG8814,DRSC25994
2.03,1.46,5816,6218,CG10064,DRSC09689
1.47,14.5,750,5588,Or10a,DRSC20264
2.55,13.2,6740,3608,Or10a,DRSC27634
6.89,5.79,6055,6222,CG12128,DRSC06104
17,11.2,4442,5681,CG12128,DRSC29958
3.46,4.98,6801,6806,CG13031,DRSC09911
5.15,8.86,5937,6301,E(bx),DRSC08172
3.72,18,6531,5973,E(bx),DRSC08509
2.4,2.25,1166,1735,E(bx),DRSC08583
15.6,13,6655,6310,CG13239,DRSC11694
30.7,7.09,6272,6344,Gsc,DRSC00755
3.95,2.11,6235,6118,Gsc,DRSC25752
5.64,5.07,6157,6563,MBD-like,DRSC16996
13.1,20.6,6626,4188,CG13748,DRSC06419
